# Primary screen of a compound library

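Phenotypic screen: M. tuberculosis growth, cholesterol and DPPC medium, 4 days; the read-out is not stated. Tested at 50 µM. The record gives no direction; compounds that gave an IC50 in retests scored well above the rest, so higher reads as more growth inhibition. Size under these conditions: about 69,000 compounds, about 370 of them at 50% or above in at least one test.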

Values are the deposited “Percent Effect”, in %. The controls that fix the scale are not given in the record; negative values are as filed. The entries come from a sample that favours strong results. Two or more numbers in one place are separate tests of the same structure; such repeats can differ widely.

| # | Compound | percent effect |
|---|---|---|
| 1 | `CC(C)CC(C)N(C)Cc1nnc(-c2ccco2)o1` (stereo not shown) | 3.466% |
| 2 | `Cc1ccc(CN2CCN(C(=O)c3ccc(Br)o3)CC2)cc1` | 21.11% |
| 3 | `CN(C)c1cc(C(=O)Nc2ccccc2C(=O)NC(C)(C)C)ccn1` | 54.55% |
| 4 | `NCCn1nc(C2CCN(Cc3ccccc3Cl)C2)c2nccnc21` (stereo not shown) | 53.37% |
| 5 | `CSCCC(NC(N)=O)C(=O)Nc1ccc(-n2cccn2)nc1` (stereo not shown) | 11.98% |
| 6 | `Cc1cc(C(=O)NCC(Cc2cccc(F)c2)N2CCCCC2=O)no1` (stereo not shown) | -14.51% |
| 7 | `CCSc1ncc(CN2CCN(c3nc(C)cnc3C)CC2)cn1` | 51.65% |
| 8 | `O=C(NCCCN1CCOCC1)c1ccc(-n2ccc3ccccc32)s1` | -20.98% |
| 9 | `O=C(O)C(F)(F)F.O=C(O)C(F)(F)F.c1cncc(-c2ccc3c(c2)CCC32CCN(Cc3ccco3)CC2)c1` | 54.78% |
| 10 | `CC(C)CN1CC(C(=O)NCCc2c[nH]cn2)CC1=O` (stereo not shown) | 14.01% |
| 11 | `Cc1[nH]c2ccc(CNc3cc(C(N)=O)ccn3)cc2c1C` | 20.03% |
| 12 | `CC(=O)N1CCCC1c1nnn2cc(-c3ccncc3)ccc12.O=C(O)C(F)(F)F` (stereo not shown) | 77.15% & -7.512% |
| 13 | `COc1cc(C)sc1C(=O)NCCC(=O)N(C)c1ccccc1` | 12.23% |
| 14 | `Cl.NC1CCc2nc(-c3ccncc3)nc(Nc3cccc(F)c3)c2C1` (stereo not shown) | 20.66% & 12.76% |
| 15 | `c1ccc(-c2nc3c(c(NCc4n[nH]c5c4CCC5)n2)CCNC3)cc1` | 57.51% |
| 16 | `CC(C)CCOCCNC(=O)Nc1cc(C(F)(F)F)c[nH]c1=O` | 30.82% |
| 17 | `Cc1ccc(-c2cc(N)c(=O)n(C(C)C(=O)NC(C)C)n2)o1` (stereo not shown) | -20.23% & 3.582% |
| 18 | `Cl.Cl.Clc1cccc(C[C@@H]2NCCC[C@@H]2Nc2cccc(Cl)c2)c1` | 111.7% |
| 19 | `CCN(Cc1cnn(C)c1)C[C@H]1CC[C@@H](Cc2cccc(C#N)c2)O1` | -6.09% |
| 20 | `Cc1nn(-c2ccccc2)nc1C(=O)NCC(c1ccsc1)N(C)C` (stereo not shown) | 18.12% |
| 21 | `O=C(C1CCCC1)N1CCCC1c1nnc2n1CCCCC2` (stereo not shown) | -23.14% |
| 22 | `Cc1ncnc2c1CCN(C(=O)c1ccsc1)CC2` | -13.28% |
| 23 | `Cc1c(-c2cc(C(F)(F)F)nc(N3CCC(N)CC3)n2)cnn1C` | -27.77% |
| 24 | `O=C(Nc1cccnc1N1CCSCC1)c1ccc2c(c1)CCC2` | 17.11% |
| 25 | `O=C(NCCc1ccccn1)c1[nH]nc2c1CCCC2` | 10.05% |
| 26 | `Cc1cccc(NC(=O)C(C)Oc2ccc3c(c2)OCO3)n1` (stereo not shown) | 50.58% |
| 27 | `NC(=O)C1(CNC(=O)CCc2ccc(Cl)s2)CCOCC1` | 2.327% |
| 28 | `CCc1ccc(CN2CCC3(CCCN(C(=O)N(C)C)C3)C2)o1` (stereo not shown) | -14.97% |
| 29 | `c1ccc(Cc2cccc(C3CCCN3C3CCOCC3)n2)cc1` (stereo not shown) | 51.13% & 54.74% |
| 30 | `CC(NCc1ccc(OCC(N)=O)cc1)c1ccc(Cl)cc1Cl.Cl` (stereo not shown) | 71.18% |
| 31 | `O=C(NCC1CCCCO1)c1ccc(-c2cccs2)[nH]c1=O` (stereo not shown) | -6.781% & -14.58% |
| 32 | `CCOc1ccc(NC(=O)NCCS(=O)(=O)CC)cc1C` | 1.74% |
| 33 | `O=C(CNc1cccc(S(=O)(=O)C(F)F)c1)Nc1ccccc1` | -3.867% |
| 34 | `Cc1ccc(NC(C)C(=O)NCc2cccs2)cc1Cl` (stereo not shown) | 51.57% & 62.38% |
| 35 | `O=C(NCCOc1ncc(Cl)cc1Cl)c1cccnc1` | -2.143% & -8.584% |
| 36 | `CC(C)(O)CCc1cccc(C(=O)NCC2COCCO2)c1` (stereo not shown) | -10.72% |
| 37 | `c1cncc(CN2CCCC(c3nnc(-c4cnccn4)o3)C2)c1` (stereo not shown) | 86.35% |
| 38 | `COc1ccc(NC(C)C(=O)N2CCCC2)cn1` (stereo not shown) | -16.05% |
| 39 | `CN1CCCCCC1C(=O)NCCCn1ncc2ccccc21` (stereo not shown) | -8.156% |
| 40 | `O=C1NC2(CCCN(C(=O)CCn3cncn3)C2)Oc2ccccc21` (stereo not shown) | 0.337% & -1.921% |
| 41 | `COc1cccn(Cc2nnc(-c3cccnc3)o2)c1=O` | -1.962% |
| 42 | `Cc1ccc(CN[C@@H]2COC[C@H]2Cc2cc(C)no2)cc1.O=C(O)CC(O)(CC(=O)O)C(=O)O` | 2.727% |
| 43 | `COc1ccc(CNc2nncs2)cc1F` | -15.82% |
| 44 | `CS(=O)(=O)N1CCc2[nH]cnc2C12CCN(C(=O)c1ccc[nH]1)CC2` | 19.23% & 0.7519% |
| 45 | `O=C1C(n2nnc(-c3cccs3)n2)CCN1CC(F)(F)F` (stereo not shown) | 13.76% |
| 46 | `COc1cccc(S(=O)(=O)CCN2CCN(CCO)CC2)c1` | 20.71% |
| 47 | `Fc1cccc(Nc2nc(N3CCCC3)nc3c2CNCC3)c1` | 69.5% |
| 48 | `O=C(O)C(F)(F)F.[H][C@@]12CN(Cc3cccs3)C[C@]1([H])C(=O)N(c1ccsc1)C2` | 43.55% |
| 49 | `CCC(CO)Nc1nc(C(F)F)nc2ccccc12` (stereo not shown) | -2.217% |
| 50 | `Cc1ccc(-c2noc(C(C)NS(C)(=O)=O)n2)cc1` (stereo not shown) | -31.4% |
| 51 | `O=C(c1cnc(C2CC2)nc1)N1CCCC(c2nccs2)C1` (stereo not shown) | 60.36% & 26.23% |
| 52 | `CNC(=O)NC(=O)CCN1CCOC(c2ccc(Br)cc2)C1` (stereo not shown) | 45.49% |
| 53 | `CCC(CO)NCc1ccc(-c2ccccc2)o1.Cl` (stereo not shown) | -19.54% |
| 54 | `O=C(c1ccc(Cn2cnnn2)cc1)N1CCC(c2ccncc2)CC1` | 90.92% |
| 55 | `Nc1ncccc1C(=O)NCc1cccc(Cl)c1` | -25.68% |
| 56 | `COc1ccc(F)cc1CN(CC(N)=O)C(C)C` | -35.23% |
| 57 | `Cc1oc(-c2ccccc2)nc1C(=O)NC1=NCCS1` | 11.67% |
| 58 | `CCN(CC)c1nc(Nc2cccc(C(C)O)c2)nc2ccccc12` (stereo not shown) | 96.35% |
| 59 | `CC(C)(C)c1n[nH]cc1CNC1CCC(O)CC1` (stereo not shown) | 5.476% |
| 60 | `COC(=O)c1cnc(/C=C/c2ccc(C(=O)O)cc2)s1` | 67.1% |
| 61 | `O=C(NCc1ccc(CO)cc1)C1CCOc2ccccc2C1` (stereo not shown) | 91.85% |
| 62 | `COc1ccc(-c2ccccc2CCN)c(OC)c1` | 33.92% |
| 63 | `COc1cc2c(cc1CNC(Cc1cccs1)c1nccs1)OCCO2.Cl` (stereo not shown) | 13.68% & 19.3% |
| 64 | `COCCN1CC=C(c2cccc(OC)c2)CC1` | 10.76% |
| 65 | `O=C(CC1CCc2ccccc21)NC1(C(=O)O)CCOCC1` (stereo not shown) | -9.297% |
| 66 | `CC(NC(=O)CNc1cc2c(cc1Cl)OCCO2)c1ccco1` (stereo not shown) | -2.721% |
| 67 | `Nc1nnnn1NCc1cccc(Cl)c1Cl` | -4.751% |
| 68 | `CCn1cc(CNc2ccc(N(C)CCOC)cn2)cn1` | -21.51% |
| 69 | `COCCc1noc(C2CCN(S(=O)(=O)c3cccs3)CC2)n1` | -28.4% |
| 70 | `O=C(c1cnc(O)c(Cl)c1)N1CCCC(c2nccs2)C1` (stereo not shown) | -13.89% & -7.283% |
| 71 | `Cc1cc(NCCCC(F)(F)F)n2nc(C)cc2n1` | 72.21% |
| 72 | `O=C(Cn1cc(Cl)cn1)Nc1ccc2c(c1)OCCCO2` | -14.07% |
| 73 | `COc1cccc(OC2CN(C(=O)c3ccnc(OC)c3)C2)c1` | 0.6346% |
| 74 | `c1ccc(C2CN(C3CC3)CC3(CCN(Cc4cscn4)CC3)C2)cc1` (stereo not shown) | 50.74% |
| 75 | `CC(C)CNC(=O)c1cc2c(s1)CCN2Cc1cccnc1` | 64.49% |
| 76 | `CCN(Cc1ccc(Cl)c(Cl)c1)C(=O)CCn1cncn1` | 26.36% |
| 77 | `CCc1cc(N(C)Cc2ccncn2)n2nc(C)c(C)c2n1` | 68.2% |
| 78 | `Cc1nc2c(Nc3ccc(C#N)cc3)nc(N)nc2n1C` | -13.51% |
| 79 | `Cc1ccc2c(c1)CCC21CCN(CCO)CC1` | 3.909% |
| 80 | `COCCNc1nnc(-c2ccccn2)s1` | -8.82% |
| 81 | `COc1ccc(CN2CCc3nc4ccsc4c(=O)n3CC2)c(C)c1C` | -16.65% |
| 82 | `Cc1cccc(C2(O)CCN(Cc3ccccc3N3CCCC3)CC2)c1` | 83.21% |
| 83 | `Cc1ccoc1C(=O)N1CCCc2c(c(=O)n(C)n2C)C1` | 0.8477% & -17.46% |
| 84 | `Cc1ccc(OCCN(C)Cc2ccc(S(=O)(=O)N(C)C)o2)cc1` | 17.16% |

The last 8 entries again:

Compound	percent effect
CCc1cc(N(C)Cc2ccncn2)n2nc(C)c(C)c2n1	68.2%
Cc1nc2c(Nc3ccc(C#N)cc3)nc(N)nc2n1C	-13.51%
Cc1ccc2c(c1)CCC21CCN(CCO)CC1	3.909%
COCCNc1nnc(-c2ccccn2)s1	-8.82%
COc1ccc(CN2CCc3nc4ccsc4c(=O)n3CC2)c(C)c1C	-16.65%
Cc1cccc(C2(O)CCN(Cc3ccccc3N3CCCC3)CC2)c1	83.21%
Cc1ccoc1C(=O)N1CCCc2c(c(=O)n(C)n2C)C1	0.8477% & -17.46%
Cc1ccc(OCCN(C)Cc2ccc(S(=O)(=O)N(C)C)o2)cc1	17.16%

Source: ChEMBL document CHEMBL3988442, “University of Dundee, Small-Polar-MMV Screening Library” (2021).